B1: Index 21: SEQ ID NO: 113; computational precursor for BbpD04 (protein)
chain: GFDWKKVLDKAKDLAENDVREAKQKLEEFYKKAMKLDLTQEMRRKLMLEWIAAMLMAIGDIFNAIEQGKQEADKLKKLGKVLSQLLDELKRRLEELKEEAALKAHDFGREFELKLLFG
modifications: optionally absent
Consider B1, for which the “Log2 Enrichment Ratio: Expression” value (FACS sort for cells expressing surface protein) is on record as 0.49. In addition, the “Log2 Enrichment Ratio: High Expression” value (FACS sort for the 2% of cells with highest expression) was −1.20.

The record behind these values is patent publication US9750814B2, “Polypeptides to inhibit epstein barr viral protein BHRF1 and B cell lymphoma family proteins” (priority 2014, dated 2017).
